Results of unrelated studies side by side (data: NIAID ChemDB).

All rows: tests in culture; species: HIV-1; measure: EC50

Blank or dashed fields: not listed here.

SMILES | conditions | method | strain | mutations | cell line | value
C/C=C/CSc1cc(NC(=S)c2ccsc2C)ccc1Cl | - | p24 | IIIB | - | CEM + CEM-SS | 0.4 µM
C[C@@H]1CCO[C@H]2Cn3cc(C(=O)NCc4ccc(F)cc4F)c(=O)c(O)c3C(=O)N12 | - | luciferase / luminescence | - | I60M | TZM-bl | 0.0024 µM
O=C(N[C@@H](Cc1ccccc1)C(=O)C(F)(F)CN(Cc1ccccc1)S(=O)(=O)c1ccccc1)OCc1ccccc1 | - | p24 | IIIB | - | CEM | <1 µM
CCN1c2ncc(CCOc3ccc(-c4ccc(CC(=O)O)cc4)cc3C)cc2C(=O)N(C)c2cccnc21 | - | p24 | IIIB | - | C8166 | <0.01 µM
CCCC(C(=O)O)c1c(-c2ccc(Cl)cc2)c2cc(Cl)ccc2n(CCOC)c1=O | - | luciferase / reporter gene | - | - | C8166 | <20 µM
Cc1cc(S(N)(=O)=O)ccc1NC(=O)COc1ccc(Cl)cc1C(=O)c1cccc(C#N)n1 | - | β-galactosidase | WTRVA | - | HeLa + HELA CD4+ | <0.01 µM
CCC(=O)c1ccc(F)c([C@@H]2C[C@@H]2NC(=O)Nc2ccc(C#N)cn2)c1O | - | β-galactosidase / luminescence | LAI | - | TZM-bl | 0.00068 µM
CC(C)CN(CC(O)CN1CSC[C@H]1C(=O)NC(C)(C)C)S(=O)(=O)c1ccccc1 | - | p24 | IIIB | - | CEM | <1 µM
CCCc1cc(=O)oc2c3c(c4c(c12)OC(C)(C)CC4)O[C@@H](C)[C@H](C)[C@@H]3O | - | XTT | UC10-resistant (RT K103N) | RT-K103N | CEM + CEM-SS | >20 µM
CC(C)C1=C2[C@H]3CC[C@@H]4[C@@]5(C)CC[C@H](OC(=O)[C@H]6C[C@@H](C(=O)O)C6(C)C)C(C)(C)[C@@H]5CC[C@@]4(C)[C@]3(C)CC[C@@]2([C@@H](O)CNC(=O)c2ncc[nH]2)CC1=O | - | p24 / ELISA | 92HT599 | - | MT-2 | <1 µM
Cc1nc2ccc(Cl)cc2c(-c2ccc(C(F)(F)F)cc2)c1C(OC(C)C)C(=O)O | - | luciferase / reporter gene | - | - | C8166 | <20 µM
Cc1cc(Cl)ccc1OCCN(C)c1ccc(-c2cnc(C)c([C@H](OC(C)(C)C)C(=O)O)c2N2CCC(C)(C)CC2)cn1 | - | luminescence | NL4-3 | - | MT-2 | 0.004 µM
N#CC1=CC2Nc3ccccc3C2N(c2ccc([N+](=O)[O-])cc2)C1=O | - | GFP / fluorescence | N119 | - | HeLa | 0.3 µM
Cc1cc(C#N)cc(C(=O)c2cc(Cl)ccc2OCC(=O)Nc2ccc(S(N)(=O)=O)nc2C)c1 | - | β-galactosidase | HXB2 | RT-V106I | HeLa + HELA CD4+ | <0.01 µM
CC(C)=CCOc1cc(NC(=S)c2ccoc2C)ccc1Cl | - | cytopathic effect / XTT | RF | - | CEM + CEM-SS | 0.02 µM
Cc1cc(OCCCS(N)(=O)=O)ccc1NC(=O)COc1ccc(Cl)cc1C(=O)c1cc(F)cc(C(F)(F)F)c1 | - | β-galactosidase | HXB2 | RT-K103N P225H | HeLa + HELA CD4+ | <0.01 µM
C=C(C)CCOc1ccc(-c2cnc(C)c([C@H](OC(C)(C)C)C(=O)O)c2N2CCC(C)(C)CC2)nc1 | - | luminescence | NL4-3 | - | MT-2 | 0.0007 µM
CCc1ccc(-c2c(C(OC3(CC)CCC3)C(=O)O)c(C)nc3ccc(Cl)cc23)cc1 | - | luciferase / reporter gene | - | - | C8166 | <20 µM
Cc1cc2cn[nH]c2cc1NC(=O)COc1ccc(Cl)cc1C(=O)c1cccc(C#N)c1 | - | cytopathic effect / propidium iodide | IIIB | - | MT-4 | <0.01 µM
[2H]C(CNCC[C@@]12CC[C@]3(C)[C@H](CC[C@@H]4[C@@]5(C)CC[C@H](OC(=O)[C@H]6C[C@@H](C(=O)O)C6(C)C)C(C)(C)[C@@H]5CC[C@]43C)C1=C(C(C)C)C(=O)C2)NC(=O)c1ccc(Cl)cc1 | - | p24 / ELISA | 92HT599 | - | MT-2 | <1 µM
C[C@H](Cn1cnc2c(N)ncnc21)OCP(=O)(O)O | - | recombinant virus assay | Clinical isolate | M41L/D67N/K70R/M184V/L210W/T215Y/K219E | MT-2 | 0.0092 µM
CC(C)C1=C2[C@H]3CC[C@@H]4[C@@]5(C)CC[C@H](OC(=O)[C@H]6C[C@@H](C(=O)O)C6(C)C)C(C)(C)[C@@H]5CC[C@@]4(C)[C@]3(C)CC[C@@]2([C@@H](O)CNC(=O)C(C)(C)NC(=O)c2ccc(O[C@H]3CCOC3)cc2)CC1=O | - | p24 / ELISA | 92HT599 | - | MT-2 | <1 µM
C[C@H]1[C@H](O)[C@@H](C)/C=C/C=C/C=C/C=C/C=C/C=C/C=C/[C@H](O[C@@H]2O[C@H](C)[C@@H](O)[C@H](N)[C@@H]2O)C[C@@H]2O[C@](O)(C[C@@H](O)C[C@@H](O)CC[C@H](O)[C@@H](O)C[C@@H](O)CC(=O)O[C@H]1C)C[C@H](O)[C@H]2C(=O)O | - | p24 / RT activity | CMU06 CLADE E X4 (SI) | - | PBMC | 1.3 µM
Cc1ncc(-c2ccc(OCCCCC(F)(F)F)cn2)c(N2CCC(C)(C)CC2)c1[C@H](OC(C)(C)C)C(=O)O | - | luminescence | NL4-3 | - | MT-2 | 0.0015 µM
Cc1ccc(-c2ccc(NC(=O)N3CCC4(CCO4)CC3)cc2)cc1 | pseudotyped | luminescence | CE1176 | - | TZM-bl | >30 µM
CCOC(=O)CCNC(=O)Nc1cccc2c(C(=O)C(=O)N3CCN(C(=O)c4ccccc4)C[C@H]3C)c[nH]c12 | - | luciferase / reporter gene | - | - | HeLa | <1 µM
COCCOc1cc(Cl)ccc1C(=O)NC(C)(C)CNCC[C@@]12CC[C@]3(C)[C@H](CC[C@@H]4[C@@]5(C)CC[C@H](OC(=O)[C@H]6C[C@@H](C(=O)O)C6(C)C)C(C)(C)[C@@H]5CC[C@]43C)C1=C(C(C)C)C(=O)C2 | - | p24 / ELISA | 92HT599 | - | MT-2 | <1 µM
CC(C)=CCOc1cc(NC(=S)c2ccsc2C)ccc1Cl | - | cytopathic effect / XTT | 4XAZT+Y181C | - | CEM + CEM-SS | 0.01 µM
CC(C)C1=C2[C@H]3CC[C@@H]4[C@@]5(C)CC[C@H](OC(=O)[C@H]6C[C@@H](C(=O)O)C6(C)C)C(C)(C)[C@@H]5CC[C@@]4(C)[C@]3(C)CC[C@@]2(CCNC(=O)[C@H]2CCCNC2)CC1=O | - | p24 / ELISA | 92HT599 | - | MT-2 | <1 µM
Cc1ncc(-c2ccc(NCCOc3ccc(F)cc3)nc2)c(N2CCC(C)(C)CC2)c1[C@H](OC(C)(C)C)C(=O)O | - | luminescence | NL4-3 | - | MT-2 | 0.002 µM
CC1NC(=O)N(c2cccc3c(C(=O)C(=O)N4CCN(C(=O)c5ccccc5)C[C@H]4C)c[nH]c23)C1=O | - | luciferase / reporter gene | - | - | HeLa | <1 µM
Cc1cccc(Cl)c1OCCOc1ccc(-c2cnc(C)c([C@H](OC(C)(C)C)C(=O)O)c2N2CCC(C)(C)CC2)nc1 | - | luminescence | NL4-3 | - | MT-2 | 0.0011 µM
Cc1cc2[nH]cnc2cc1NC(=O)COc1ccc(Cl)cc1C(=O)c1cc(F)cc(C(F)(F)F)c1 | - | β-galactosidase | HXB2 | RT-P236L | HeLa + HELA CD4+ | <0.01 µM
COCCC(C)Oc1ncc(-c2cnc(C)c([C@H](OC(C)(C)C)C(=O)O)c2N2CCC(C)(C)CC2)cc1F | - | luminescence | NL4-3 | - | MT-2 | 0.0044 µM
C=CCOC(C(=O)O)c1c(C)nc2ccc(Br)cc2c1-c1ccc(Cl)cc1 | - | luciferase / reporter gene | - | - | C8166 | <20 µM
Cc1ncc(-c2cnc(OCCc3ccccn3)c(F)c2)c(N2CCC(C)(C)CC2)c1[C@H](OC(C)(C)C)C(=O)O | - | luminescence | NL4-3 | - | MT-2 | 0.0006 µM
CCc1ccc(-c2c(C(OC(C)C)C(=O)O)c(C)nc3ccc(Cl)cc23)cc1 | - | luciferase / reporter gene | - | - | C8166 | <20 µM
CCN1c2ncc(CCOc3ccc(-c4ccncc4)cc3)cc2C(=O)N(C)c2cccnc21 | - | p24 | IIIB | - | C8166 | <0.01 µM
CC1(C)CC=C(c2cn(-c3nccc(C(=O)NC4CCC(N5CC6CCC(C5)O6)CC4)n3)c3ccc(F)c([C@H](OC(C)(C)C)C(=O)O)c23)CC1 | - | luminescence | NL4-3 | T97A/Y143R | MT-4 | 0.0044 µM
CCN1c2ncc(CCOc3ccc(-c4ccc(CC(=O)O)cc4O)cc3C)cc2C(=O)N(C)c2cccnc21 | - | p24 | IIIB | - | C8166 | 0.01–0.05 µM
COC(C(=O)O)c1c(C)nc2ccc(Cl)cc2c1-c1ccc(Cl)cc1 | - | luciferase / reporter gene | - | - | C8166 | <20 µM
Cc1cc(C#N)cc(C(=O)c2cc(Cl)ccc2OCC(=O)Nc2ccc(OCCCN3CC=CC3)cc2C)c1 | - | cytopathic effect / propidium iodide | IIIB | - | MT-4 | <0.01 µM
CC(=O)Nc1ccc(F)c2c(C(=O)C(=O)N3CCC(=C(C#N)c4ccccc4)CC3)c[nH]c12 | - | luciferase / reporter gene | - | - | HeLa | <1 µM
CC(C)CN(CC(O)CN(CC(C)C)S(=O)(=O)c1ccc(O)cc1)S(=O)(=O)c1ccccc1 | - | p24 | IIIB | - | CEM | <1 µM
CC(=O)c1c(C)nc(-c2ccccc2)nc1NC(=O)c1ccccc1 | - | GFP / fluorescence | B-HXB2 | - | HeLa | 0.24 µM
COc1ccc(S(=O)(=O)N(CC(C)C)CC(O)CNc2ccccc2C(=O)NC(C)(C)C)cc1 | - | p24 | IIIB | - | CEM | <1 µM
C[C@@H]1CN(C(=O)c2ccccc2)CCN1C(=O)C(=O)c1c[nH]c2c(NC(=O)NCCCC(=O)O)cccc12 | - | luciferase / reporter gene | - | - | HeLa | <1 µM
Cc1nc2ccc(Cl)cc2c(-c2ccc(Cl)cc2)c1C(OC(C)(C)CCl)C(=O)O | - | luciferase / reporter gene | - | - | C8166 | <20 µM
Cc1ccc(C)n1-c1ccc(C(=O)O)c(O)c1 | - | luciferase / cell fusion | 93TH051 X4R5 CLADE E | - | PBMC/5.25M7 | 7.46 µM
Cc1ccc(C(=O)NC(C)(C)CNC[C@H](O)[C@@]23CC[C@]4(C)[C@H](CC[C@@H]5[C@@]6(C)CC[C@H](OC(=O)[C@H]7C[C@@H](C(=O)O)C7(C)C)C(C)(C)[C@@H]6CC[C@]54C)C2=C(C(C)C)C(=O)C3)nc1 | - | p24 / ELISA | 92HT599 | - | MT-2 | <1 µM
CCN1c2ncc(CCOc3ccc(C(=O)Nc4nc(CC(=O)O)cs4)cc3C)cc2C(=O)N(C)c2cccnc21 | - | p24 | IIIB | - | C8166 | 0.01–0.05 µM
CCC[C@@]1(CCc2ccccc2)CC(O)=C([C@H](CC)c2cccc(NS(=O)(=O)c3ccc(C(F)(F)F)cn3)c2)C(=O)O1 | - | reporter gene | r13205 | - | MT-4 | 729 nM
Cc1nc2ccccc2c(-c2cc(F)c3c(c2C)CCCO3)c1[C@H](OC(C)(C)C)C(=O)O | - | luminescence | NL4-3 | T124N | MT-4 | 0.021 µM
Cc1cc(C)cc(C(=O)c2cc(Cl)ccc2OCC(=O)Nc2ccc(S(N)(=O)=O)cc2C)c1 | - | β-galactosidase | HXB2 | RT-V106A Y181C | HeLa + HELA CD4+ | <0.01 µM
Nc1ccn([C@H]2CC[C@@H](CO)O2)c(=O)n1 | - | β-galactosidase | NL4-3 | H258Q | - | 0.381 µM
C#C[C@@]1(CO)C=C[C@H](n2cc(C)c(=O)[nH]c2=O)O1 | - | recombinant virus assay | Clinical isolate | T69ins/K70R/M184V/K219Q | MT-2 | >46.2 µM
Cc1cc(C)cc(Cc2c(I)c(=O)[nH]c(=O)n2COCc2ccccc2)c1 | - | p24 / ELISA | SF33 | - | PBMC | 0.003 µM
CCN1c2ncc(CCOc3ccc(-c4ccc(N)c(C(=O)O)c4)cc3C)cc2C(=O)N(C)c2cccnc21 | - | p24 | - | RT-K103N Y181C | C8166 | <0.01 µM
COc1ccc(S(=O)(=O)N(CC(C)C)C[C@@H](O)CCN(CC2CCCC2)S(=O)(=O)Cc2cc(C(C)(C)C)on2)cc1 | - | p24 | IIIB | - | CEM | <1 µM
CCN1c2ncc(CCOc3ccc(-c4ccc(C(=O)O)nc4)cc3C)cc2C(=O)N(C)c2cccnc21 | - | p24 | IIIB | - | C8166 | <0.01 µM
O=S(=O)(c1ccccc1)N(CCc1ccccc1)CC(O)CN(CC1CCCC1)S(=O)(=O)c1ccccc1 | - | p24 | IIIB | - | CEM | <1 µM

A second listing of 5 rows from above:

CCOC(=O)CCNC(=O)Nc1cccc2c(C(=O)C(=O)N3CCN(C(=O)c4ccccc4)C[C@H]3C)c[nH]c12 ; method: luciferase / reporter gene ; cell line: HeLa ; value: <1 µM
Cc1cc(C)cc(Cc2c(I)c(=O)[nH]c(=O)n2COCc2ccccc2)c1 ; method: p24 / ELISA ; strain: SF33 ; cell line: PBMC ; value: 0.003 µM
CC(C)C1=C2[C@H]3CC[C@@H]4[C@@]5(C)CC[C@H](OC(=O)[C@H]6C[C@@H](C(=O)O)C6(C)C)C(C)(C)[C@@H]5CC[C@@]4(C)[C@]3(C)CC[C@@]2(CCNC(=O)[C@H]2CCCNC2)CC1=O ; method: p24 / ELISA ; strain: 92HT599 ; cell line: MT-2 ; value: <1 µM
Nc1ccn([C@H]2CC[C@@H](CO)O2)c(=O)n1 ; method: β-galactosidase ; strain: NL4-3 ; mutations: H258Q ; value: 0.381 µM
CCN1c2ncc(CCOc3ccc(-c4ccc(N)c(C(=O)O)c4)cc3C)cc2C(=O)N(C)c2cccnc21 ; method: p24 ; mutations: RT-K103N Y181C ; cell line: C8166 ; value: <0.01 µM

ECn is the concentration giving n% inhibition of infection, replication or growth. Conditions beyond the fields shown may differ between rows. a–b is a range or a potency band.